Anti-infective test results gathered from many reports (values: NIAID ChemDB through PubChem).

All rows: growth or infection tests; agent: Mycobacterium smegmatis; measure: MIC

Neighbouring rows are from separate reports. Blank or dashed fields: not listed here. a–b is a range or a potency band.

compound	changes	strain or isolate	read by	value
CCCCCCCCCCCCCCCCCOC(=O)NC(CCC(=O)O)(CCC(=O)O)CCC(=O)O		mc155		27 µg/mL
NCCCNC(=O)c1ccnc(Nc2ccn(CCOCCN3CCC(N)CC3)c(=O)n2)c1			turbidity	32–128 µg/mL
CCCCCCCCCCCCCCCCC(=O)NC(C)(CCC(=O)O)CCC(=O)O		mc155		18 µg/mL
CC1CN(c2cc3c(cc2[N+](=O)[O-])c(=O)c(C(=O)O)c2n3CS2)CC(C)O1		ATCC 14468 MC2	agar	63.87 µM
C=C1C2CCC(CO)[C@@]23CC[C@H](C3)C1(C)C	Lomefloxacin-resistant	LomR5	agar diffusion	25 µg/mL
CC1(N)CCN(CCCCn2ccc(Nc3ccc(CNCCCN)cn3)nc2=O)CC1			turbidity	<8 µg/mL
CC(C)(C)NC(=O)C1c2ccccc2CCN1c1cc2c(cc1F)c(=O)c(C(=O)O)c1n2CS1		ATCC 14468 MC2	agar	51.92 µM
NC1CCN(CCCCn2ccc(Nc3ccc(C4(O)CCNCC4)cn3)nc2=O)CC1			turbidity	<8 µg/mL
O=C(O)c1cn2c(n1)CN(c1cc3c(cc1[N+](=O)[O-])c(=O)c(C(=O)O)c1n3CS1)CC2		ATCC 14468 MC2	agar	14.09 µM
C[C@](N)(CO)C(=O)Nc1ccc(Nc2ccn(CCCCN3CCC(N)CC3)c(=O)n2)nc1			turbidity	8–32 µg/mL
NNC(=O)c1ccncc1		MC^2 846		60 µg/mL
NC1CCN(CCCCn2ccc(Nc3ccc(CNC4CCNCC4)cn3)nc2=O)CC1			turbidity	<8 µg/mL
O=C(O)c1c2n(c3cc(N4CCN(Cc5ccc6c(c5)OCO6)CC4)c(F)cc3c1=O)CS2		ATCC 14468 MC2	agar	53.25 µM
CCCCCCCCC(CCCCCCCC)OC(=O)NC(CCC(=O)O)(CCC(=O)O)CCC(=O)O		mc155		71 µg/mL
O=C(O)c1c2n(c3cc(N4CCN(C(c5ccccc5)c5ccc(Cl)cc5)CC4)c(F)cc3c1=O)CS2		ATCC 14468 MC2	agar	46.64 µM
CCCCCCCCC(CCCCCCCC)NC(=O)NC(CCC(=O)O)(CCC(=O)O)CCC(=O)O		mc155		144 µg/mL
NCCCOCc1ccc(Nc2ccn(CCCCN3CCC(N)CC3)c(=O)n2)nc1			turbidity	8–32 µg/mL
O=C(O)c1c2n(c3cc(N4CCN(Cc5ccc6c(c5)OCO6)CC4)c([N+](=O)[O-])cc3c1=O)CS2		ATCC 14468 MC2	agar	6.3 µM

A second listing of 2 rows from above:

compound,changes,strain or isolate,read by,value
CCCCCCCCC(CCCCCCCC)NC(=O)NC(CCC(=O)O)(CCC(=O)O)CCC(=O)O,,mc155,,144 µg/mL
O=C(O)c1cn2c(n1)CN(c1cc3c(cc1[N+](=O)[O-])c(=O)c(C(=O)O)c1n3CS1)CC2,,ATCC 14468 MC2,agar,14.09 µM